Measured values from several laboratories, pooled; numbers as filed in NIAID ChemDB.

Shared fields: toxicity to cultured cells; cells: MT-4; read-out: CC50

Rows are shuffled and stem from different studies. CCn is the concentration with n% toxicity to the cells.

{"smiles": "CC(=O)OC[C@H]1O[C@@H](n2c3c(c(-c4ccc(Cl)cc4)c(C#N)c2=S)Cc2ccccc2-3)[C@H](OC(C)=O)[C@@H](OC(C)=O)[C@H]1OC(C)=O", "value": "8.76 µM"}
{"smiles": "CC1NCCn2c1nc(C(=O)NCc1ccc(F)cc1)c(O)c2=O", "read by": "microscopy", "value": ">1 µM"}
{"smiles": "Cc1ccc(C(=O)Nc2cccc(C(=O)Nc3ccc(S(=O)(=O)O)c4cc(S(=O)(=O)O)cc(S(=O)(=O)O)c34)c2)cc1NC(=O)Nc1cc(C(=O)Nc2cccc(C(=O)Nc3ccc(S(=O)(=O)O)c4cc(S(=O)(=O)O)cc(S(=O)(=O)O)c34)c2)ccc1C", "value": ">500 µg/mL"}
{"smiles": "O=C(COc1nsnc1-c1cccc2ccccc12)Nc1ccccc1[N+](=O)[O-]", "read by": "MTT", "value": "≥66 µM"}
{"smiles": "Cc1ccc2c(c1)C(=O)N(CCOC(=S)Nc1ccc(F)cc1)C2=O", "value": ">100 µM"}
{"smiles": "CCCCCCCCCCCCCC(=O)OC[C@H]1O[C@@H](n2cnc3c(N)ncnc32)[C@@H]1CO", "value": "4 µg/mL"}
{"smiles": "O=C(c1c(O)cc(O)cc1O)c1c(-c2ccc(O)cc2)oc2cc(O)c3c(c12)O[C@H](c1ccc(O)cc1)CC3", "value": "61 µg/mL"}
{"smiles": "Cc1cn([C@H]2C[C@H](NC(=O)C(F)(F)F)[C@@H](CO)O2)c(=O)[nH]c1=O", "value": "1 µM"}
{"smiles": "Cc1cn([C@H]2C[C@H](N=[N+]=[N-])[C@@H](CO)O2)c(=O)[nH]c1=O", "read by": "MTT", "value": "257 µg/mL"}
{"smiles": "Cc1cc2oc(=O)c(C(=O)/C=C/c3ccccc3)c(O)c2cc1Cl", "value": "8.56 µg/mL"}
{"smiles": "NOCc1c(Cl)cccc1Cl", "value": "51.9 µg/mL"}
{"smiles": "CC(C)CN(C[C@@H](O)[C@H](Cc1ccccc1)NC(=O)O[C@H]1CO[C@H]2OCC[C@H]21)S(=O)(=O)c1ccc2nc(N)sc2c1", "read by": "MTT", "value": "85.11 µM"}
{"smiles": "CCOCn1c(Cc2ccccc2)c(C(C)C)c(=O)[nH]c1=O", "read by": "MTT", "value": ">100 µM"}
{"smiles": "[N-]=[N+]=NC[C@H]1[C@H](n2cnc3c(N)ncnc32)O[C@@H]1CO", "value": "80 µg/mL"}
{"smiles": "CCCCCCCCCCCCCCCCCCOC(=O)Oc1c2n(cc(C(=O)NCc3ccc(F)cc3F)c1=O)[C@@H]1CN(C2=O)[C@@H](C)CC[C@]12CC(C)=NO2", "read by": "luminescence", "value": "50 µM"}
{"smiles": "COc1ccc(/C=C/C(=O)c2c(O)c3cc(Cl)c(C)cc3oc2=O)cc1", "value": "45.6 µg/mL"}
{"smiles": "NOCc1ccccc1Cl", "value": "73.3 µg/mL"}
{"smiles": "CCCCCCCCCCCCCCCCCC(=O)OCOc1c2n(cc(C(=O)NCc3ccc(F)cc3F)c1=O)[C@@H]1CN(C2=O)[C@@H](C)CC[C@]12CC(C)=NO2", "read by": "luminescence", "value": "50 µM"}
{"smiles": "Cc1cc2ncc(=O)n(CC(O)CO)c2cc1C", "read by": "MTT", "value": "10.95 µg/mL"}
{"smiles": "CNC(=O)c1nc([C@]2(C)CSC([C@]3(C)CSC([C@]4(C)CSC(/C=C/c5ccccc5)=N4)=N3)=N2)oc1C", "value": "46.5 µM"}
{"smiles": "Cc1ccc(C(C)C)c2oc(=O)c(C(=O)/C=C/c3ccc(N(C)C)cc3)c(O)c12", "value": ">125 µg/mL"}
{"smiles": "O=c1[nH]cnc2c1ncn2[C@@H]1O[C@H](CO)[C@H]1CO", "value": ">300 µg/mL"}
{"smiles": "Cc1cn([C@H]2C=C(F)[C@@H](CO)O2)c(=O)[nH]c1=O", "value": "232 µM"}
{"smiles": "NOCc1ccccc1", "value": "82.3 µg/mL"}
{"smiles": "CC(C)CN(C[C@@H](O)[C@H](Cc1ccccc1)NC(=O)O[C@H]1CCOC1)S(=O)(=O)c1ccc2nc(N)sc2c1", "read by": "MTT", "value": "<100 µM"}
{"smiles": "N#Cc1cc(Cl)cc(Oc2c(C(F)(F)F)ccn(CC(=O)Nc3ncn[nH]3)c2=O)c1", "read by": "MTT", "value": ">285 µM"}
{"smiles": "Cc1cn([C@H]2C[C@H](NC#N)[C@@H](CO)O2)c(=O)[nH]c1=O", "value": "100 µM"}
{"smiles": "CCCCCCCCCCOC(=O)OCOc1c2n(cc(C(=O)NCc3ccc(F)cc3F)c1=O)[C@@H]1CN(C2=O)[C@@H](C)CC[C@]12CC(OC)=NO2", "read by": "luminescence", "value": "50 µM"}
{"smiles": "CCNC(=O)N1CCn2c(nc(C(=O)NCc3ccc(F)cc3)c(O)c2=O)C1(C)C", "read by": "microscopy", "value": ">1 µM"}
{"smiles": "Nc1ccn([C@@H]2O[C@H](CO)[C@@H](F)[C@@H]2F)c(=O)n1", "value": ">500 µM"}
{"smiles": "NCCCNC(=O)CC(N)CCCN", "value": "0.028 µg/mL"}
{"smiles": "CCCOC(=O)[C@H](Cc1ccccc1)NP(=O)(CO[C@H]1CO[C@@H](n2cc(C)c(N)nc2=O)C1)N[C@@H](Cc1ccccc1)C(=O)OCCC", "read by": "MTT / absorbance", "value": "85.5 µM"}
{"smiles": "Cc1ccc2c(c1)C(=O)N(CCOC(=S)Nc1ccc(C#N)cc1)C2=O", "value": ">100 µM"}
{"smiles": "CCOC(=O)c1ccc(NC(=O)COc2nsnc2-c2cccc3ccccc23)cc1", "read by": "MTT", "value": "85 µM"}
{"smiles": "Cc1c(O)cccc1C(=O)N[C@@H](Cc1ccccc1)[C@H](O)CN(CC(C)C)S(=O)(=O)c1ccc2nc(N)sc2c1", "read by": "MTT", "value": "69.18 µM"}
{"smiles": "CC(C)(C)NC(=O)[C@@H]1CN(Cc2cncs2)CCN1C[C@@H](O)C[C@@H](Cc1ccccc1)C(=O)N[C@H]1c2ccccc2C[C@H]1O", "value": ">100 µM"}
{"smiles": "CCCOC(=O)[C@H](Cc1ccccc1)NP(=O)(CO[C@H]1CO[C@@H](n2cnc3c(N)nc(N)nc32)C1)N[C@@H](Cc1ccccc1)C(=O)OCCC", "read by": "MTT / absorbance", "value": "61.4 µM"}
{"smiles": "CSCC[C@H](C)OC(=O)[C@@H](NC(=O)CSC(C)(C)C)c1ccccc1-c1c[nH]c2ccccc12", "read by": "MTT", "value": "16 µM"}
{"smiles": "N#Cc1cc(Cl)cc(Oc2c(C(F)(F)F)ccn(CC(=O)Nc3ccncc3)c2=O)c1", "read by": "MTT", "value": "133 µM"}
{"smiles": "Cc1ccc(C(C)C)c2oc(=O)c(C(=O)/C=C/c3ccc(O)cc3)c(O)c12", "value": ">8.95 µg/mL"}
{"smiles": "Fc1ccccc1Cn1cc(COc2nsnc2-c2cccc3ccccc23)nn1", "read by": "MTT", "value": "≥79 µM"}
{"smiles": "NOCc1cc(Cl)ccc1Cl", "value": "47 µg/mL"}
{"smiles": "[N-]=[N+]=N[C@H]1[C@@H](F)[C@H](n2ccc(N)nc2=O)O[C@@H]1CO", "value": "243 µM"}
{"smiles": "CCCCCCCCCCCCCCCCOC(=O)Oc1c2n(cc(C(=O)NCc3ccc(F)cc3F)c1=O)[C@@H]1CN(C2=O)[C@@H](C)CC[C@]12CC(OC)=NO2", "read by": "luminescence", "value": "50 µM"}
{"smiles": "CCCCCC(CCSC)OC(=O)[C@@H](N)c1ccccc1-c1c[nH]c2ccccc12", "read by": "MTT", "value": "27 µM"}
{"smiles": "Cc1ccnc2c1NC(=O)c1cccnc1N2C1CC1", "read by": "MTT", "value": ">15 µM"}
{"smiles": "CCCOC(=O)[C@H](Cc1ccccc1)NP(=O)(CO[C@H]1CO[C@@H](n2cnc3c(NC4CC4)nc(N)nc32)C1)N[C@@H](Cc1ccccc1)C(=O)OCCC", "read by": "MTT / absorbance", "value": "60.1 µM"}
{"smiles": "CSCC[C@H](C)OC(=O)[C@@H](N)c1ccccc1-c1c[nH]c2ccccc12", "read by": "MTT", "value": "33 µM"}
{"smiles": "Cc1cc2oc(=O)c(C(=O)/C=C/c3cccc(Oc4ccccc4)c3)c(O)c2cc1Cl", "value": "51.6 µg/mL"}
{"smiles": "Cc1ccc(NC(=S)OCCN2C(=O)c3ccc(C)cc3C2=O)cc1", "value": ">100 µM"}
{"smiles": "N#Cc1ccc(Cn2cc(COc3nsnc3-c3cccc4ccccc34)nn2)cc1", "read by": "MTT", "value": "13 µM"}
{"smiles": "CC(=O)N1CCn2c(nc(C(=O)NCc3ccc(F)cc3)c(O)c2=O)C1", "read by": "microscopy", "value": ">1 µM"}
{"smiles": "CC1=NO[C@@]2(CC[C@H](C)N3C[C@H]2n2cc(C(=O)NCc4ccc(F)cc4F)c(=O)c(OCOC(=O)CCCCCC(C)C)c2C3=O)C1", "read by": "luminescence", "value": "50 µM"}
{"smiles": "Nc1ncnc2c1ncn2[C@@H]1O[C@H](CO)[C@]1(O)CO", "value": ">100 µg/mL"}
{"smiles": "O=C(Nc1ccc(S(=O)(=O)O)c2cc(S(=O)(=O)O)cc(S(=O)(=O)O)c12)c1ccc([N+](=O)[O-])o1", "value": ">500 µg/mL"}
{"smiles": "O=C(NCc1ccc(Cl)c(Cl)c1)c1cnc(C(=O)NO)c(O)c1CO", "value": "50 µM"}
{"smiles": "CSCCC(OC(=O)[C@@H](N)c1ccccc1-c1c[nH]c2ccccc12)C(C)(C)C", "read by": "MTT", "value": "35 µM"}
{"smiles": "N#Cc1cc(Cl)cc(Oc2c(C(F)(F)F)ccn(CC(=O)Nc3cccnc3)c2=O)c1", "read by": "MTT", "value": "111 µM"}
{"smiles": "Cc1ccc2c(c1)C(=O)N(C(C)COC(=S)Nc1ccc(Cl)cc1)C2=O", "value": ">100 µM"}
{"smiles": "CN1Cn2c(nc(C(=O)NCc3ccc(F)cc3S(C)(=O)=O)c(O)c2=O)C1(C)C", "read by": "microscopy", "value": ">1 µM"}
{"smiles": "Cc1cc2oc(=O)c(C(=O)/C=C/c3ccccc3[N+](=O)[O-])c(O)c2cc1Cl", "value": "10.1 µg/mL"}
{"smiles": "Nc1nc(N)c2ncn([C@H]3C[C@@H](OCP(=O)(O)O)CO3)c2n1", "read by": "MTT / absorbance", "value": ">378 µM"}
{"smiles": "O=C(CNc1ccc(C(=O)Nc2cc(S(=O)(=O)O)cc3cc(S(=O)(=O)O)cc(S(=O)(=O)O)c23)cc1)CNc1ccc(C(=O)Nc2cc(S(=O)(=O)O)cc3cc(S(=O)(=O)O)cc(S(=O)(=O)O)c23)cc1", "value": ">500 µg/mL"}
{"smiles": "N#Cc1cc(Cl)cc(Oc2c(C(F)(F)F)ccn(CC(=O)Nc3ccc(F)cc3)c2=O)c1", "read by": "MTT", "value": "112 µM"}
{"smiles": "CC1(C)c2nc(C(=O)NCc3ccc(F)cc3)c(O)c(=O)n2CCN1Cc1ccccn1", "read by": "microscopy", "value": ">1 µM"}
{"smiles": "O=C1c2c(O)cc(O)cc2O[C@]12c1c(cc(O)c3c1O[C@H](c1ccc(O)cc1)CC3)O[C@H]2c1ccc(O)cc1", "value": "38 µg/mL"}
{"smiles": "Cc1ccc(NC(=O)COc2nsnc2-c2cccc3ccccc23)c(Br)c1", "read by": "MTT", "value": "14 µM"}
{"smiles": "Cc1cc2oc(=O)c(C(=O)/C=C/c3ccc(O)cc3)c(O)c2cc1Cl", "value": "2 µg/mL"}
{"smiles": "O=C(Nc1cccc(-c2ccc(C(=O)Nc3ccc(S(=O)(=O)O)c4cc(S(=O)(=O)O)cc(S(=O)(=O)O)c34)cc2)c1)Nc1cccc(-c2ccc(C(=O)Nc3ccc(S(=O)(=O)O)c4cc(S(=O)(=O)O)cc(S(=O)(=O)O)c34)cc2)c1", "value": ">500 µg/mL"}

Repeating the first 10 entries:

CC(=O)OC[C@H]1O[C@@H](n2c3c(c(-c4ccc(Cl)cc4)c(C#N)c2=S)Cc2ccccc2-3)[C@H](OC(C)=O)[C@@H](OC(C)=O)[C@H]1OC(C)=O ; value: 8.76 µM
CC1NCCn2c1nc(C(=O)NCc1ccc(F)cc1)c(O)c2=O ; read by: microscopy ; value: >1 µM
Cc1ccc(C(=O)Nc2cccc(C(=O)Nc3ccc(S(=O)(=O)O)c4cc(S(=O)(=O)O)cc(S(=O)(=O)O)c34)c2)cc1NC(=O)Nc1cc(C(=O)Nc2cccc(C(=O)Nc3ccc(S(=O)(=O)O)c4cc(S(=O)(=O)O)cc(S(=O)(=O)O)c34)c2)ccc1C ; value: >500 µg/mL
O=C(COc1nsnc1-c1cccc2ccccc12)Nc1ccccc1[N+](=O)[O-] ; read by: MTT ; value: ≥66 µM
Cc1ccc2c(c1)C(=O)N(CCOC(=S)Nc1ccc(F)cc1)C2=O ; value: >100 µM
CCCCCCCCCCCCCC(=O)OC[C@H]1O[C@@H](n2cnc3c(N)ncnc32)[C@@H]1CO ; value: 4 µg/mL
O=C(c1c(O)cc(O)cc1O)c1c(-c2ccc(O)cc2)oc2cc(O)c3c(c12)O[C@H](c1ccc(O)cc1)CC3 ; value: 61 µg/mL
Cc1cn([C@H]2C[C@H](NC(=O)C(F)(F)F)[C@@H](CO)O2)c(=O)[nH]c1=O ; value: 1 µM
Cc1cn([C@H]2C[C@H](N=[N+]=[N-])[C@@H](CO)O2)c(=O)[nH]c1=O ; read by: MTT ; value: 257 µg/mL
Cc1cc2oc(=O)c(C(=O)/C=C/c3ccccc3)c(O)c2cc1Cl ; value: 8.56 µg/mL